Assays:
[1] = system: C. glabrata YEM19 (over-expressing the CgCDR1 and CgCDR2 pumps); experiment: Checkerboard / broth microdilution assay, potentiation of fluconazole vs. C. glabrata; details: for MIC: Nakaseomyces glabratus, 48 h; for MPC8: in combination with fluconazole, strain YEM19
[2] = system: Candida albicans YEM15 (over-expressing the CDR1 and CDR2 pumps); experiment: Checkerboard / broth microdilution assay, potentiation of fluconazole vs. C. albicans; details: for MIC: Candida albicans, 48 h; for MPC8 = concentration of efflux pump inhibitor necessary to reduce the fluconazole MIC 8-fold: in combination with fluconazole, strain YEM15

Structure (SMILES) | MIC [1] | MPC8 [1] | MIC [2] | MPC8 = concentration of efflux pump inhibitor necessary to reduce the fluconazole MIC 8-fold [2]
COCCOCCOCC(=O)N1CCN(n2c(C(C)N(C(=O)Nc3ccc(F)cc3)c3ccc(OC)cc3OC)nc3ccccc3c2=O)CC1 (stereo not shown) [Compound 153] | > 32 µg/mL | 1 µg/mL | > 32 µg/mL | 2 µg/mL
COc1ccc(N(C(=O)Nc2ccc(Cl)cc2)C(C)c2nc3cc(F)c(F)cc3c(=O)n2N2CCN(C)CC2)c(OC)c1 (stereo not shown) [Compound 65] | > 32 µg/mL | 0.25 µg/mL | 32 µg/mL | 0.0625 µg/mL
COc1ccc(N(C(=O)Nc2ccc(F)cc2)C(C)c2nc3ccccc3c(=O)n2N2CCN(C(N)=O)CC2)c(OC)c1 (stereo not shown) [Compound 133] | > 32 µg/mL | 16 µg/mL | > 32 µg/mL | 8 µg/mL
COc1ccc(N(C(=O)Nc2ccc(F)cc2)C(C)c2nc3ccccc3c(=O)n2N2CCN(C(=O)OC(C)(C)C)CC2)c(OC)c1 (stereo not shown) [Compound 85] | > 32 µg/mL | 0.25 µg/mL | > 32 µg/mL | 0.5 µg/mL
COc1ccc(N(C(=O)Nc2ccc(F)cc2)C(C)c2nc3ccccc3c(=O)n2N2CCN(CC(=O)N3CCCC3)CC2)c(OC)c1 (stereo not shown) [Compound 117] | > 32 µg/mL | 0.5 µg/mL | > 32 µg/mL | 0.125 µg/mL
COc1ccc(N(C(=O)Nc2ccc(F)cc2)C(C)c2nc3ccccc3c(=O)n2N2CCN(C(=O)CN(C)C(=O)OC(C)(C)C)CC2)c(OC)c1 (stereo not shown) [Compound 166] | > 32 µg/mL | 0.5 µg/mL | > 32 µg/mL | 1 µg/mL
COc1ccc(N(C(=O)Nc2ccc(F)cc2)C(C)c2nc3ccccc3c(=O)n2N2CCN(S(C)(=O)=O)CC2)c(OC)n1 (stereo not shown) [Compound 130] | > 32 µg/mL | 32 µg/mL | > 32 µg/mL | 2 µg/mL
COc1ccc(N(C(=O)Nc2ccc(F)cc2)C(C)c2nc3ccccc3c(=O)n2N2CCN(C(=O)CN3CCC(O)C3)CC2)c(OC)c1 (stereo not shown) [Compound 144] | > 32 µg/mL | 2 µg/mL | > 32 µg/mL | 32 µg/mL
COc1ccc(N(C(=O)Nc2ccc(F)cc2)C(C)c2nc3ccccc3c(=O)n2N2CCN(C(=O)OCCN3CCCC3)CC2)c(OC)c1 (stereo not shown) [Compound 98] | > 32 µg/mL | 0.5 µg/mL | > 32 µg/mL | 8 µg/mL
COCCNC(=O)N1CCN(n2c(C(C)N(C(=O)Nc3ccc(F)cc3)c3ccc(OC)nc3OC)nc3ccccc3c2=O)CC1 (stereo not shown) [Compound 135] | > 32 µg/mL | 2 µg/mL | > 32 µg/mL | 4 µg/mL
COc1ccc(N(C(=O)Nc2ccc(F)cc2)C(C)c2nc3ccccc3c(=O)n2N2CCN(CC(=O)NCCO)CC2)c(OC)c1 (stereo not shown) [Compound 48] | > 32 µg/mL | 2 µg/mL | > 32 µg/mL | 16 µg/mL
COc1ccc(N(C(=O)Nc2ccc(F)cc2)C(C)c2nc3ccccc3c(=O)n2N2CCN(CCCC(=O)NS(C)(=O)=O)CC2)c(OC)c1 (stereo not shown) [Compound 180] | > 32 µg/mL | 16 µg/mL | > 32 µg/mL | 32 µg/mL
CC(c1nc2ccccc2c(=O)n1N1CCN(C(=O)OC(C)(C)C)CC1)N(C(=O)Nc1ccc(F)cc1)c1ccc(F)cc1F (stereo not shown) [Compound 90] | > 32 µg/mL | 4 µg/mL | > 32 µg/mL | 0.125 µg/mL
COc1ccc(N(C(=O)Nc2ccc(F)cc2)C(C)c2nc3ccccc3c(=O)n2N2CCN(C(=O)C[n+]3ccccc3)CC2)c(OC)c1.[Cl-] (stereo not shown) [Compound 50] | > 32 µg/mL | 4 µg/mL | > 32 µg/mL | 32 µg/mL
COc1ccc(N(C(=O)Nc2ccc(F)cc2)C(C)c2nc3ccccc3c(=O)n2N2CCN(C(=O)OCCn3ccc(=O)cc3)CC2)c(OC)c1 (stereo not shown) [Compound 56] | > 32 µg/mL | 8 µg/mL | > 32 µg/mL | 16 µg/mL
COc1ccc(N(C(=O)Nc2ccc(C(F)(F)F)cc2)C(C)c2nc3cc(Cl)ccc3c(=O)n2N2CCN(C)CC2)c(OC)c1 (stereo not shown) [Compound 75] | 16 µg/mL | 0.5 µg/mL | 16 µg/mL | 0.5 µg/mL
COc1ccc(N(C(=O)Nc2cccc(Cl)c2)C(C)c2nc3ccccc3c(=O)n2N2CCN(CC(=O)N3CCOCC3)CC2)c(OC)c1 (stereo not shown) [Compound 115] | > 32 µg/mL | 2 µg/mL | > 32 µg/mL | 1 µg/mL

Structure (SMILES) | MIC [1] | MPC8 [1] | MIC [2] | MPC8 = concentration of efflux pump inhibitor necessary to reduce the fluconazole MIC 8-fold [2]
COc1ccc(N(C(=O)Nc2ccc(F)cc2)C(C)c2nc3ccccc3c(=O)n2N2CCN(C(=O)C[C@@H]3CCCN3C(=O)OC(C)(C)C)CC2)c(OC)c1 (stereo partly shown) [Compound 167] | > 32 µg/mL | 2 µg/mL | > 32 µg/mL | 2 µg/mL
COc1ccc(N(C(=O)Nc2ccc(F)cc2)C(C)c2nc3ccccc3c(=O)n2N2CCN(CC(=O)N3CCCCC3)CC2)c(OC)c1 (stereo not shown) [Compound 118] | > 32 µg/mL | 0.5 µg/mL | > 32 µg/mL | 0.0625 µg/mL
COc1ccc(N(C(=O)Nc2ccc(F)cc2)C(C)c2nc3ccccc3c(=O)n2N2CCN(CC(=O)N(C)C)CC2)c(OC)c1 (stereo not shown) [Compound 121] | > 32 µg/mL | 1 µg/mL | > 32 µg/mL | 0.125 µg/mL
COc1ccc(N(C(=O)Nc2ccc(F)cc2)C(C)c2nc3cc(F)c(F)cc3c(=O)n2N2CCN(C)CC2)c(OC)c1 (stereo not shown) [Compound 64] | > 32 µg/mL | 0.5 µg/mL | > 32 µg/mL | 0.125 µg/mL
COc1ccc(N(C(=O)Nc2ccc(F)cc2)C(C)c2nc3ccccc3c(=O)n2N2CCN(C(=O)OCCNc3nncs3)CC2)c(OC)c1 (stereo not shown) [Compound 109] | > 32 µg/mL | 0.5 µg/mL | > 32 µg/mL | 1 µg/mL
COc1ccc(N(C(=O)Nc2ccc(F)cc2)C(C)c2nc3ccccc3c(=O)n2N2CCN(CC(=O)N3CCSCC3)CC2)c(OC)c1 (stereo not shown) [Compound 119] | > 32 µg/mL | 0.25 µg/mL | > 32 µg/mL | 0.0625 µg/mL
CC(c1nc2ccccc2c(=O)n1N1CCN(CC(=O)N2CCOCC2)CC1)N(C(=O)Nc1ccc(F)cc1)c1ccc(OCC2CC2)cc1OCC1CC1 (stereo not shown) [Compound 203] | > 32 µg/mL | 2 µg/mL | > 32 µg/mL | 4 µg/mL
COc1ccc(N(C(=O)Nc2ccc(F)cc2)C(C)c2nc3ccccc3c(=O)n2N2CCN(C(=O)CN3CCC(O)CC3)CC2)c(OC)c1 (stereo not shown) [Compound 147] | > 32 µg/mL | 2 µg/mL | > 32 µg/mL | 16 µg/mL
COc1ccc(N(C(=O)Nc2ccc(F)cc2)C(C)c2nc3ccc(F)cc3c(=O)n2N2CCN(S(C)(=O)=O)CC2)c(OC)c1 (stereo not shown) [Compound 125] | > 32 µg/mL | 1 µg/mL | > 32 µg/mL | ≦0.03 μg/ml
COc1ccc(N(C(=O)Nc2ccc(F)cc2)C(C)c2nc3ccccc3c(=O)n2N2CCN(C(=O)CCNC(=O)OC(C)(C)C)CC2)c(OC)c1 (stereo not shown) [Compound 163] | > 32 µg/mL | 2 µg/mL | > 32 µg/mL | 2 µg/mL
COCCOCC(=O)N1CCN(n2c(C(C)N(C(=O)Nc3ccc(F)cc3)c3ccc(OC)cc3OC)nc3ccccc3c2=O)CC1 (stereo not shown) [Compound 152] | > 32 µg/mL | 0.5 µg/mL | > 32 µg/mL | 0.5 µg/mL
CCOC(=O)N1CCN(n2c(C(C)N(C(=O)Nc3cccc(Cl)c3)c3ccc(OC)cc3OC)nc3ccc(Cl)cc3c2=O)CC1 (stereo not shown) [Compound 91] | > 32 µg/mL | 16 µg/mL | > 32 µg/mL | 2 µg/mL
COc1ccc(N(C(=O)Nc2ccc(Cl)cc2)C(C)c2nc3cc(Cl)ccc3c(=O)n2N2CCN(C)CC2)c(OC)c1 (stereo not shown) [Compound 76] | > 32 µg/mL | 0.5 µg/mL | > 32 µg/mL | 0.25 µg/mL
CCOC(=O)N1CCN(n2c(C(C)N(C(=O)Nc3ccc(Cl)cc3)c3ccc(OC)cc3OC)nc3c(OC)cccc3c2=O)CC1 (stereo not shown) [Compound 96] | > 32 µg/mL | 8 µg/mL | > 32 µg/mL | 32 µg/mL
COc1ccc(N(C(=O)Nc2ccc(F)cc2)C(C)c2nc3ccccc3c(=O)n2N2CCN(C(=O)OC(C)(C)C)CC2)c(OC)n1 (stereo not shown) [Compound 87] | > 32 µg/mL | 2 µg/mL | > 32 µg/mL | 0.5 µg/mL
COc1ccc(N(C(=O)Nc2ccc(F)cc2)C(C)c2nc3ccccc3c(=O)n2N2CCN(CC(=O)N3CCN(C)CC3)CC2)c(OC)c1 (stereo not shown) [Compound 120] | > 32 µg/mL | 1 µg/mL | > 32 µg/mL | 8 µg/mL
COCCOCC(=O)N1CCN(n2c(C(C)N(C(=O)Nc3ccc(F)cc3)c3ccc(OC)nc3OC)nc3ccccc3c2=O)CC1 (stereo not shown) [Compound 154] | > 32 µg/mL | 1 µg/mL | > 32 µg/mL | 2 µg/mL

— patent publication US20030220338A1, “Fungal efflux pump inhibitors” (priority 2001, published 2003)
